Experimental data: PMC8459920
The list shows a part of the results.

By UniProt entry, the sequences of proteins in these tests, tags left out.
UniProt Q93034, whole entry: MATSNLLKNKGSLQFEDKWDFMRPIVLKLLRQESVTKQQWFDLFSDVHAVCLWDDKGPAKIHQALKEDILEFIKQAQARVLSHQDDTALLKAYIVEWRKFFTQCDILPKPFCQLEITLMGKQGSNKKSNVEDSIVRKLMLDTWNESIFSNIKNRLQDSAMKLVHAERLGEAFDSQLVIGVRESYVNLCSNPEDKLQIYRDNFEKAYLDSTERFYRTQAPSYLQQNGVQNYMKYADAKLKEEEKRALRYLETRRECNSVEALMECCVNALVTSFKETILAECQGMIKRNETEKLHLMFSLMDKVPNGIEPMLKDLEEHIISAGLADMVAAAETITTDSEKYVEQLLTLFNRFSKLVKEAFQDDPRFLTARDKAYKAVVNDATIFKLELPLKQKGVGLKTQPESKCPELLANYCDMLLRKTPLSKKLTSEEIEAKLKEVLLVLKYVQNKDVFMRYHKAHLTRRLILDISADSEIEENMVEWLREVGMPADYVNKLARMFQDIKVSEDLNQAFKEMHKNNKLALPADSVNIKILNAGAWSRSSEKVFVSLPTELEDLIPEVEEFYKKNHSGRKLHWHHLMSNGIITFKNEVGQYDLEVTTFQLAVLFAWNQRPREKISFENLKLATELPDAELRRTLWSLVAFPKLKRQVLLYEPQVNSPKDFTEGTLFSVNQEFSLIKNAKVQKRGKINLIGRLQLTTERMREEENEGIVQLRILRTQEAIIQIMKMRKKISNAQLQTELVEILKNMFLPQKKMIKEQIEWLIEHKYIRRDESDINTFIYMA

Target: Cullin-5 (UniProt Q93034)
Experiment: cross-link between two proteins; cross-linking mass spectrometry

For Virion infectivity factor, P69723, the “listed as a hit” value was “yes”.
